Assay results taken from patent US10376456B2, “Concentrated and self-preserving compositions of mild surfactants for transparent and skin-pH personal care formulations” (GALAXY SURFACTANTS LTD., priority 2015, dated 2019).

Assay: Foam volume and lather potential (drainage time), Hart-DeGeorge method
Assay type: physicochemical
Settings: Surfactant (1%) at 25° C. and at pH 6.5

Row | Substance | Foam volume [mL]
1 | sodium cocoyl glycinate | 200
2 | Sodium cocoyl isethionate | 380
